Anti-infective test results gathered from many reports (values: NIAID ChemDB through PubChem).

All rows: whole-cell or culture tests; organism: HIV-1

Lines come from different laboratories, so protocols vary. An empty or dashed field is not shown. a–b is a range or a potency band. ECn: concentration that inhibits the pathogen or its effect by n%.

| smiles | strain or isolate | endpoint | changes | method | cell line | setting | result |
|---|---|---|---|---|---|---|---|
| C=C(C)[C@@H]1CC[C@]2(CC(=O)O)CC[C@]3(C)C(CCC4[C@@]5(C)CCC(=O)C(C)(C)C5CC[C@]43C)C12 | IIIB | EC50 | - | syncytia | C8166 | - | 0.17 µM |
| S=C(NCCc1ccccn1)Nc1ccc(Br)cn1 | N119 nevirapine-resistant (RT Y181C) | EC50 | RT-Y181C | cytopathic effect / MTT | MT-4 | - | >100 µM |
| CC(C)(C)NC(=O)[C@@H]1C[C@@H]2CCCC[C@@H]2CN1C[C@@H](O)[C@H](Cc1ccccc1)NC(=O)[C@H](CC(N)=O)NC(=O)c1ccc2ccccc2n1 | LAI | EC50 | - | RT activity | PBL | - | 0.01 µM |
| Cc1ccnc2c1NC(=O)c1cccnc1N2C1CC1 | NRTI resistant (RT L74V M41L V106A T215Y) MDR | EC50 | RT-L74V M41L V106A T215Y | p24 | PBMC | - | 5 µM |
| CCc1c(C(=O)c2cc(C)cc(C)c2)n(CC2CC=CC2)c(=O)[nH]c1=O | NL4-3 | EC50 | RT-Y181C | cytopathic effect / XTT | CEM + CEM-SS | - | 0.009 µM |
| Cc1cn([C@H]2C[C@H](N=[N+]=[N-])[C@@H](CO)O2)c(=O)[nH]c1=O | - | EC50 | Raltegravir-resistant IN Q148H/G140S | - | MT-4 | - | 0.002 µM |
| Nc1ccn([C@@H]2O[C@H](CO)C[C@@H]2F)c(=O)n1 | IIIB | EC50 | - | p24 / ELISA | PBL | - | <2 µg/mL |
| Cc1cn([C@H]2C[C@H](N=[N+]=[N-])[C@@H](COP(=O)(OCc3ccccc3)OCc3ccccc3)O2)c(=O)[nH]c1=O | IIIB | EC50 | - | syncytia | C8166 | - | 0.08 µM |
| O=C1c2ccccc2C(=O)N1CCOC(=S)N(C(=O)c1ccco1)c1ccc([N+](=O)[O-])cc1 | N119 nevirapine-resistant (RT Y181C) | EC50 | RT-Y181C | cytopathic effect / MTT | MT-4 | - | >100 µM |
| CC(=O)[C@]12CCC(C)(C)C=C1C1=CCC3[C@@]4(C)CCC(=O)C(C)(C)C4CC[C@@]3(C)[C@]1(C)CC2 | IIIB | EC50 | - | syncytia | C8166 | - | 6.16 µM |
| S=C(NCCc1ccccn1)Nc1ccc(Br)cn1 | IIIB | EC50 | - | p24 | PBMC | - | 0.007 µM |
| NC(=O)OCc1cn(Cc2ccncc2)c(Sc2cc(Cl)cc(Cl)c2)c1C1CCCCC1 | IIIB | EC50 | - | cytopathic effect / MTT | MT-4 | - | 0.34 µM |
| CCOC(=O)c1ccc(COP(=O)(O)OC[C@H]2O[C@@H](n3cc(C)c(=O)[nH]c3=O)C[C@@H]2N=[N+]=[N-])cc1 | IIIB | EC50 | - | syncytia | C8166 | - | 0.032 µM |
| CC(C)c1nc(C(=O)NCc2ccc(F)cc2)c([O-])c(=O)n1C.CC(C)c1nc(C(=O)NCc2ccc(F)cc2)c([O-])c(=O)n1C.[Mg+2] | IIIB | EC50 | - | MTT | MT-4 | - | 0.025 µM |
| CC(=O)c1cccc(C(=O)COCCCCCCCCOP(=O)(OC[C@H]2OC(O)[C@H](O)[C@@H](O)[C@@H]2O)OC[C@H]2O[C@@H](n3cc(C)c(=O)[nH]c3=O)C[C@@H]2N=[N+]=[N-])n1 | LAI | EC50 | - | cytopathic effect / MTT | CEM + CEM-4 | - | 0.8 µM |
| CC(C)(C)NC(=O)[C@@H]1C[C@@H]2CCCC[C@@H]2N1C(=O)[C@@H](O)[C@H](Cc1ccccc1)NC(=O)[C@H](CC(N)=O)NC(=O)COc1ccccc1 | RF | EC90 | - | p24 | MT-2 | - | 0.42 µM |
| COC(=O)C1=C[C@H](O)[C@@H](O)[C@H](O)C1 | IIIB | EC50 | - | MTT | MT-4 | - | 124.4 µM |
| O=C1c2ccccc2C(=O)N1CCOC(=S)N(C(=O)c1cccs1)c1ccc([N+](=O)[O-])cc1 | N119 nevirapine-resistant (RT Y181C) | EC50 | RT-Y181C | cytopathic effect / MTT | MT-4 | - | 1.2 µM |
| Cc1cn([C@H]2C[C@H](N=C(NC#N)Oc3ccccc3)[C@@H](CO)O2)c(=O)[nH]c1=O | IIIB | EC50 | - | cytopathic effect / MTT | CEM | - | 25 µg/mL |
| C=C(C)[C@@H]1CC[C@]2(CCO)CC[C@]3(C)C(CCC4[C@@]5(C)CC/C(=C\O)C(C)(C)C5CC[C@]43C)C12 | IIIB | EC50 | - | syncytia | C8166 | - | 103 µM |
| Cc1cn([C@H]2C[C@H](N=[N+]=[N-])[C@@H](CO)O2)c(=O)[nH]c1=O | LAV | EC50 | - | p24 / ELISA | U-937 | - | 0.03 µg/mL |
| [Li+] | IIIB | EC50 | - | p24 | PBL | - | >1000 µg/mL |
| CC(C)c1c(C(C)O)cn(Cc2ccncc2)c1Sc1cc(Cl)cc(Cl)c1 | IIIB | EC50 | - | cytopathic effect / MTT | MT-4 | - | 26 µM |
| O=C1c2ccccc2C(=O)N1CCOC(=S)N(C(=O)c1cccnc1Cl)c1ccc(Cl)cc1 | IIIB | EC50 | RT-K103R V179D P225H | cytopathic effect / MTT | MT-4 | - | >100 µM |
| O=c1c(O)c(-c2ccc(O)c(O)c2)oc2cc(O)cc(O)c12 | IIIB | EC50 | - | p24 | H9 | - | 1.6 µg/mL |
| COC(=O)c1ccc(COP(=O)(OCc2ccc(C(=O)OC)cc2)OC[C@H]2O[C@@H](n3cc(C)c(=O)[nH]c3=O)C[C@@H]2N=[N+]=[N-])cc1 | GB8 | EC50 | - | syncytia | JM | - | 0.008 µM |
| O=C(OC[C@H]1OC(=O)c2ccccc21)c1ccccc1 | - | EC50 | - | - | CEM | - | >10 µM |
| O=C(O)c1c[nH]c2ccc(Cc3ccccc3)cc2c1=O | IIIB | EC50 | - | MTT | MT-4 | - | >19 µM |
| COc1cc([C@@H]2c3cc(O)c(OC)cc3C[C@@H](CO)[C@@H]2CO)ccc1O | IIIB | EC50 | - | syncytia | C8166 | - | 88.69 µM |
| COCCNC(=O)[C@@H](NC(=O)[C@H](Cc1ccc(OC)c(OC)c1OC)C[C@H](O)[C@H](Cc1ccccc1)NC(=O)OC(C)(C)C)C(C)C | LAI | EC50 | - | RT activity | PBL | - | 0.017 µM |
| CC(C)Nc1cccnc1N1CCN(C(=O)c2cc3cc(NS(C)(=O)=O)ccc3[nH]2)CC1 | IIIB | EC50 | - | MTT | MT-4 | - | 0.32 µM |
| Cc1cn([C@H]2C[C@H](N=[N+]=[N-])[C@@H](COP(=O)(O)OCc3ccc(C(=O)OC(C)C)cc3)O2)c(=O)[nH]c1=O | IIIB | EC50 | - | syncytia | C8166 | - | 0.016 µM |
| Nc1ncnc2c1ncn2CCOCP(=O)(O)O | T215Y(RT-T215Y) | EC50 | RT-T215Y | p24 | MT-2 | - | 1.8 µM |
| Cc1cn([C@H]2C[C@H](N=[N+]=[N-])[C@@H](COP(=O)(O)O)O2)c(=O)[nH]c1=O | IIIB | EC50 | - | syncytia | C8166 | - | 0.008 µM |
| CC(C)(C)NC(=O)[C@@H]1C[C@@H]2CCCC[C@@H]2N1C(=O)[C@@H](O)[C@H](Cc1ccccc1)NC(=O)[C@H](CC(N)=O)NC(=O)COc1cccc2ccccc12 | RF | EC90 | - | p24 | MT-2 | - | 0.035–0.14 µM |
| CC(C)c1c(C(=O)O)cn(Cc2ccncc2)c1Sc1cc(Cl)cc(Cl)c1 | IIIB | EC50 | - | cytopathic effect / MTT | MT-4 | - | 2.1 µM |
| OO | BaL | EC50 | - | p24 | PBMC | - | >100 µM |
| O=C1N(Cc2ccc(CO)cc2)[C@H](Cc2ccccc2)[C@H](O)[C@@H](O)[C@@H](Cc2ccccc2)N1Cc1ccc(CO)cc1 | RF | EC90 | - | plaque count / virus yield | MT-2 | - | 0.07 µg/mL |
| CC1(C)C2=CC(=O)C(O)(c3ccccc3)C(=O)N2c2ccc(Cl)cc21 | CC15 | EC50 | - | p24 | PBMC/1(CC15) + PBMC | - | 0.01 µM |
| CC(C)c1c(COC(N)=O)cn(Cc2ccncc2)c1Sc1cc(Cl)cc(Cl)c1 | IIIB | EC50 | - | cytopathic effect / MTT | MT-4 | - | 0.12 µM |
| O=c1c(O[C@@H]2O[C@H](CO)[C@@H](O)[C@H](O)[C@H]2O)c(-c2ccc(O)cc2)oc2cc(O)cc(O)c12 | IIIB | EC50 | - | p24 | H9 | - | 80 µg/mL |
| CC(C)c1nc(C(=O)NCc2ccc(F)cc2)c(O)c(=O)n1C | IIIB | EC50 | - | MTT | MT-4 | - | 0.063 µM |
| Cc1cn([C@H]2C[C@H](N=[N+]=[N-])[C@@H](CO)O2)c(=O)[nH]c1=O | T215Y(RT-T215Y) | EC50 | RT-T215Y | p24 | MT-2 | - | 0.09 µM |
| CC1(C)C2=CC(=O)C(c3ccccc3)C(=O)N2c2ccccc21 | RF | EC50 | - | cytopathic effect / MTT | MT-4 | - | >100 µM |
| Cc1cn([C@H]2C[C@H](NC(N)=O)[C@@H](CO)O2)c(=O)[nH]c1=O | IIIB | EC50 | - | cytopathic effect / MTT | CEM | - | >100 µg/mL |
| Cc1cn([C@H]2C[C@H](N=[N+]=[N-])[C@@H](COP(=O)(OCCCCCCCCN(C)CCN(C)C)OC[C@H]3OC(O)[C@H](O)[C@@H](O)[C@@H]3O)O2)c(=O)[nH]c1=O | LAI | EC50 | - | cytopathic effect / MTT | CEM + CEM-4 | - | 0.07 µM |
| COC1N(N(C)C)C(=O)c2c(O)c(=O)c(C(=O)NCc3ccc(F)cc3F)cn2C12COC2 | NL4-3 | EC50 | - | GFP | MT4-GFP | 0% human serum | 0.004 µM |
| O=c1[nH]cnc2c1ncn2[C@H]1CC[C@@H](CO)O1 | L214F(RT-L214F) | EC50 | RT-L214F | p24 | MT-2 | - | 1.2 µM |
| CC(C)(C)NC(=O)[C@@H]1CCCN1C(=O)[C@@H](O)[C@H](Cc1ccccc1)NC(=O)[C@H](CC(N)=O)NC(=O)COc1cccc2ccccc12 | RF | EC50 | - | p24 | MT-2 | - | 0.131 µM |
| Cc1ccnc2c1NC(=O)c1cccnc1N2C1CC1 | 1506-RS (RT-Y188L) | EC50 | RT-Y188L | cytopathic effect / MTT | MT-4 | - | >100 µM |
| O=C([O-])c1cn(CCO)c2ccc(Cc3ccccc3)cc2c1=O.O=C([O-])c1cn(CCO)c2ccc(Cc3ccccc3)cc2c1=O.[Mg+2] | IIIB | EC50 | - | MTT | MT-4 | - | 4.5 µM |
| CCOC(=O)c1cn(Cc2ccncc2)c(Sc2cc(Cl)cc(Cl)c2)c1C1CCC1 | IIIB | EC50 | - | cytopathic effect / MTT | MT-4 | - | 0.3 µM |
| CC(C)=CCC/C(C)=C/CC/C(C)=C/CC/C(C)=C/Cc1cc(O)cc2c1OC(=O)C2 | IIIB | EC50 | - | syncytia | C8166 | - | 1.56 µM |
| O=c1[nH]cnc2c1ncn2[C@H]1CC[C@@H](CO)O1 | IIIB | EC50 | - | MTT | MT-4 | - | 12 µM |
| CC(C)CCC[C@@H](C)[C@H]1CC[C@H]2[C@@H]3CC[C@H]4C[C@@H](CCC=C(c5cc(Cl)c(O)c(C(=O)O)c5)c5cc(Cl)c(O)c(C(=O)O)c5)CC[C@]4(C)[C@H]3CC[C@]12C | RF | EC50 | - | p24 | PBL | - | 5.3 µM |
| CC(C)c1c(C(=O)c2ccccc2)cn(Cc2ccncc2)c1Sc1cc(Cl)cc(Cl)c1 | IIIB | EC50 | - | cytopathic effect / MTT | MT-4 | - | 12 µM |
| Nc1nc(=O)n([C@@H]2C=C(F)[C@H](CO)S2)cc1F | xxBRU WT | EC50 | - | RT activity | PBMC | - | <0.35 µM |
| CNNC(=O)c1cn(Cc2ccncc2)c(Sc2cc(Cl)cc(Cl)c2)c1C(C)C | IIIB | EC50 | - | cytopathic effect / MTT | MT-4 | - | 4 µM |
| COc1c(O)c(I)c2c(c1OC)-c1c(c(I)c(O)c(OC)c1OC)C[C@H](C)[C@H](C)C2 | A17 | EC50 | RT-K103N Y181C | cytopathic effect / MTT | MT-4 | - | 8.71 µM |
| Cc1cn([C@H]2C[C@H](Nc3n[nH]c(N)n3)[C@@H](CO)O2)c(=O)[nH]c1=O | IIIB | EC50 | - | cytopathic effect / MTT | CEM | - | >100 µg/mL |
| CC(=O)c1cn(Cc2ccncc2)c(Sc2cc(Cl)cc(Cl)c2)c1C(C)C | IIIB | EC50 | - | cytopathic effect / MTT | MT-4 | - | 29 µM |
| Cc1cn([C@H]2C[C@H](N=[N+]=[N-])[C@@H](CO)O2)c(=O)[nH]c1=O | 3TC-resistant (RT M184V) | EC50 | RT-M184V | RT activity | PBMC | - | <0.003 µM |

For reference, 8 entries again:

smiles	strain or isolate	endpoint	changes	method	cell line	setting	result
O=c1[nH]cnc2c1ncn2[C@H]1CC[C@@H](CO)O1	L214F(RT-L214F)	EC50	RT-L214F	p24	MT-2	-	1.2 µM
Cc1ccnc2c1NC(=O)c1cccnc1N2C1CC1	NRTI resistant (RT L74V M41L V106A T215Y) MDR	EC50	RT-L74V M41L V106A T215Y	p24	PBMC	-	5 µM
C=C(C)[C@@H]1CC[C@]2(CC(=O)O)CC[C@]3(C)C(CCC4[C@@]5(C)CCC(=O)C(C)(C)C5CC[C@]43C)C12	IIIB	EC50	-	syncytia	C8166	-	0.17 µM
COC1N(N(C)C)C(=O)c2c(O)c(=O)c(C(=O)NCc3ccc(F)cc3F)cn2C12COC2	NL4-3	EC50	-	GFP	MT4-GFP	0% human serum	0.004 µM
Cc1cn([C@H]2C[C@H](N=[N+]=[N-])[C@@H](CO)O2)c(=O)[nH]c1=O	-	EC50	Raltegravir-resistant IN Q148H/G140S	-	MT-4	-	0.002 µM
CCc1c(C(=O)c2cc(C)cc(C)c2)n(CC2CC=CC2)c(=O)[nH]c1=O	NL4-3	EC50	RT-Y181C	cytopathic effect / XTT	CEM + CEM-SS	-	0.009 µM
Cc1cn([C@H]2C[C@H](NC(N)=O)[C@@H](CO)O2)c(=O)[nH]c1=O	IIIB	EC50	-	cytopathic effect / MTT	CEM	-	>100 µg/mL
CCOC(=O)c1cn(Cc2ccncc2)c(Sc2cc(Cl)cc(Cl)c2)c1C1CCC1	IIIB	EC50	-	cytopathic effect / MTT	MT-4	-	0.3 µM